Laboratory results reported in paper PMC9104152, “Phosphoproteomics Unravel HBV Triggered Rewiring of Host Phosphosignaling Events” (International Journal of Molecular Sciences, 2022).

The molecules below were run on HepG2-NTCP cells (assay: TMT-based phosphoproteome profiling of HBV-infected vs mock HepG2-NTCP (HBV/mock ratio)). Settings: phosphosite abundance ratio of host protein, HBV-infected vs mock HepG2-NTCP, 7dpi, sheet Up-regulated.
Parameters: species or system human

| Molecule | HBV/mock |
| --- | --- |
| O00418 1xPhospho [S445(99.7)] (protein, UniProt O00418 2-725, looked up, phospho S445) Eukaryotic elongation factor …: ADEDLIFRLEGVDGGQSPRAGHDGDSDGDSDDEEGYFICPITDDPSSNQNVNSKVNKYYSNLTKSERYSSSGSPANSFHFKEAWKHAIQKAKHMPDPWAEFHLEDIATERATRHRYNAVTGEWLDDEVLIKMASQPFGRGAMRECFRTKKLSNFLHAQQWKGASNYVAKRYIEPVDRDVYFEDVRLQMEAKLWGEEYNRHKPPKQVDIMQMCIIELKDRPGKPLFHLEHYIEGKYIKYNSNSGFVRDDNIRLTPQAFSHFTFERSGHQLIVVDIQGVGDLYTDPQIHTETGTDFGDGNLGVRGMALFFYSHACNRICESMGLAPFDLSPRERDAVNQNTKLLQSAKTILRGTEEKCGSPQVRTLSGSRPPLLRPLSENSGDENMSDVTFDSLPSSPSSATPHSQKLDHLHWPVFSDLDNMASRDHDHLDNHRESENSGDSGYPSEKRGELDDPEPREHGHSYSNRKYESDEDSLGSSGRVCVEKWNLLNSSRLHLPRASAVALEVQRLNALDLEKKIGKSILGKVHLAMVRYHEGGRFCEKGEEWDQESAVFHLEHAANLGELEAIVGLGLMYSQLPHHILADVSLKETEENKTKGFDYLLKAAEAGDRQSMILVARAFDSGQNLSPDRCQDWLEALHWYNTALEMTDCDEGGEYDGMQDEPRYMMLAREAEMLFTGGYGLEKDPQRSGDLYTQAAEAAMEAMKGRLANQYYQKAEEAWAQMEE | 1.375 |
| O00418 3xPhospho [S470(99.4); S474(100); S477(99.4)] (protein, UniProt O00418 2-725, looked up, phosphorylated S470, S474, S477) Eukaryotic elongation factor …: ADEDLIFRLEGVDGGQSPRAGHDGDSDGDSDDEEGYFICPITDDPSSNQNVNSKVNKYYSNLTKSERYSSSGSPANSFHFKEAWKHAIQKAKHMPDPWAEFHLEDIATERATRHRYNAVTGEWLDDEVLIKMASQPFGRGAMRECFRTKKLSNFLHAQQWKGASNYVAKRYIEPVDRDVYFEDVRLQMEAKLWGEEYNRHKPPKQVDIMQMCIIELKDRPGKPLFHLEHYIEGKYIKYNSNSGFVRDDNIRLTPQAFSHFTFERSGHQLIVVDIQGVGDLYTDPQIHTETGTDFGDGNLGVRGMALFFYSHACNRICESMGLAPFDLSPRERDAVNQNTKLLQSAKTILRGTEEKCGSPQVRTLSGSRPPLLRPLSENSGDENMSDVTFDSLPSSPSSATPHSQKLDHLHWPVFSDLDNMASRDHDHLDNHRESENSGDSGYPSEKRGELDDPEPREHGHSYSNRKYESDEDSLGSSGRVCVEKWNLLNSSRLHLPRASAVALEVQRLNALDLEKKIGKSILGKVHLAMVRYHEGGRFCEKGEEWDQESAVFHLEHAANLGELEAIVGLGLMYSQLPHHILADVSLKETEENKTKGFDYLLKAAEAGDRQSMILVARAFDSGQNLSPDRCQDWLEALHWYNTALEMTDCDEGGEYDGMQDEPRYMMLAREAEMLFTGGYGLEKDPQRSGDLYTQAAEAAMEAMKGRLANQYYQKAEEAWAQMEE | 1.7 |
| Q99988 1xPhospho [S219(100)] (protein, UniProt Q99988 195-308, looked up, phosphorylated S219) Growth/differentiation factor …: ARARNGDHCPLGPGRCCRLHTVRASLEDLGWADWVLSPREVQVTMCIGACPSQFRAANMHAQIKTSLHRLKPDTVPAPCCVPASYNPMVLIQKTDTGVSLQTYDDLLAKDCHCI | 3.937 |
| P85037 2xPhospho [S213(100); S223(100)] (protein, UniProt P85037 2-733, looked up, phospho S213, S223) Forkhead box protein K1: AEVGEDSGARALLALRSAPCSPVLCAAAAAAAFPAAAPPPAPAQPQPPPGPPPPPPPPLPPGAIAGAGSSGGSSGVSGDSAVAGAAPALVAAAAASVRQSPGPALARLEGREFEFLMRQPSVTIGRNSSQGSVDLSMGLSSFISRRHLQLSFQEPHFYLRCLGKNGVFVDGAFQRRGAPALQLPKQCTFRFPSTAIKIQFTSLYHKEEAPASPLRPLYPQISPLKIHIPEPDLRSMVSPVPSPTGTISVPNSCPASPRGAGSSSYRFVQNVTSDLQLAAEFAAKAASEQQADTSGGDSPKDESKPPFSYAQLIVQAISSAQDRQLTLSGIYAHITKHYPYYRTADKGWQNSIRHNLSLNRYFIKVPRSQEEPGKGSFWRIDPASEAKLVEQAFRKRRQRGVSCFRTPFGPLSSRSAPASPTHPGLMSPRSGGLQTPECLSREGSPIPHDPEFGSKLASVPEYRYSQSAPGSPVSAQPVIMAVPPRPSSLVAKPVAYMPASIVTSQQPAGHAIHVVQQAPTVTMVRVVTTSANSANGYILTSQGAAGGSHDAAGAAVLDLGSEARGLEEKPTIAFATIPAAGGVIQTVASQMAPGVPGHTVTILQPATPVTLGQHHLPVRAVTQNGKHAVPTNSLAGNAYALTSPLQLLATQASSSAPVVVTRVCEVGPKEPAAAVAATATTTPATATTASASASSTGEPEVKRSRVEEPSGAVTTPAGVIAAAGPQGPGTGE | 1.303 |
| P85037 2xPhospho [S441(99.6); S445(99.6)] (protein, UniProt P85037 2-733, looked up, phosphorylated S441, S445) Forkhead box protein K1: AEVGEDSGARALLALRSAPCSPVLCAAAAAAAFPAAAPPPAPAQPQPPPGPPPPPPPPLPPGAIAGAGSSGGSSGVSGDSAVAGAAPALVAAAAASVRQSPGPALARLEGREFEFLMRQPSVTIGRNSSQGSVDLSMGLSSFISRRHLQLSFQEPHFYLRCLGKNGVFVDGAFQRRGAPALQLPKQCTFRFPSTAIKIQFTSLYHKEEAPASPLRPLYPQISPLKIHIPEPDLRSMVSPVPSPTGTISVPNSCPASPRGAGSSSYRFVQNVTSDLQLAAEFAAKAASEQQADTSGGDSPKDESKPPFSYAQLIVQAISSAQDRQLTLSGIYAHITKHYPYYRTADKGWQNSIRHNLSLNRYFIKVPRSQEEPGKGSFWRIDPASEAKLVEQAFRKRRQRGVSCFRTPFGPLSSRSAPASPTHPGLMSPRSGGLQTPECLSREGSPIPHDPEFGSKLASVPEYRYSQSAPGSPVSAQPVIMAVPPRPSSLVAKPVAYMPASIVTSQQPAGHAIHVVQQAPTVTMVRVVTTSANSANGYILTSQGAAGGSHDAAGAAVLDLGSEARGLEEKPTIAFATIPAAGGVIQTVASQMAPGVPGHTVTILQPATPVTLGQHHLPVRAVTQNGKHAVPTNSLAGNAYALTSPLQLLATQASSSAPVVVTRVCEVGPKEPAAAVAATATTTPATATTASASASSTGEPEVKRSRVEEPSGAVTTPAGVIAAAGPQGPGTGE | 1.308 |
| B5ME19 1xPhospho [S166(100)] (protein, UniProt B5ME19 1-914, looked up, phosphorylated S166) Eukaryotic translation …: MSRFFTTGSDSESESSLSGEELVTKPVGGNYGKQPLLLSEDEEDTKRVVRSAKDKRFEELTNLIRTIRNAMKIRDVTKCLEEFELLGKAYGKAKSIVDKEGVPRFYIRILADLEDYLNELWEDKEGKKKMNKNNAKALSTLRQKIRKYNRDFESHITSYKQNPEQSADEDAEKNEEDSEGSSDEDEDEDGVSAATFLKKKSEAPSGESRKFLKKMDDEDEDSEDSEDDEDWDTGSTSSDSDSEEEEGKQTALASRFLKKAPTTDEDKKAAEKKREDKAKKKHDRKSKRLDEEEEEDNEGGEWERVRGGVPLVKEKPKMFAKGTEITHAVVIKKLNEILQARGKKGTDRAAQIELLQLLVQIAAENNLGEGVIVKIKFNIIASLYDYNPNLATYMKPEMWGKCLDCINELMDILFANPNIFVGENILEESENLHNADQPLRVRGCILTLVERMDEEFTKIMQNTDPHSQEYVEHLKDEAQVCAIIERVQRYLEEKGTTEEVCRIYLLRILHTYYKFDYKAHQRQLTPPEGSSKSEQDQAENEGEDSAVLMERLCKYIYAKDRTDRIRTCAILCHIYHHALHSRWYQARDLMLMSHLQDNIQHADPPVQILYNRTMVQLGICAFRQGLTKDAHNALLDIQSSGRAKELLGQGLLLRSLQERNQEQEKVERRRQVPFHLHINLELLECVYLVSAMLLEIPYMAAHESDARRRMISKQFHHQLRVGERQPLLGPPESMREHVVAASKAMKMGDWKTCHSFIINEKMNGKVWDLFPEADKVRTMLVRKIQEESLRTYLFTYSSVYDSISMETLSDMFELDLPTVHSIISKMIINEELMASLDQPTQTVVMHRTEPTAQQNLALQLAEKLGSLVENNERVFDHKQGTYGGYFRDQKDGYRKNEGYMRRGGYRQQQSQTAY | 1.611 |
| O60841 1xPhospho [S511(100)] (protein, UniProt O60841 1-1220, looked up, phosphorylated S511) Eukaryotic translation …: MGKKQKNKSEDSTKDDIDLDALAAEIEGAGAAKEQEPQKSKGKKKKEKKKQDFDEDDILKELEELSLEAQGIKADRETVAVKPTENNEEEFTSKDKKKKGQKGKKQSFDDNDSEELEDKDSKSKKTAKPKVEMYSGSDDDDDFNKLPKKAKGKAQKSNKKWDGSEEDEDNSKKIKERSRINSSGESGDESDEFLQSRKGQKKNQKNKPGPNIESGNEDDDASFKIKTVAQKKAEKKERERKKRDEEKAKLRKLKEKEELETGKKDQSKQKESQRKFEEETVKSKVTVDTGVIPASEEKAETPTAAEDDNEGDKKKKDKKKKKGEKEEKEKEKKKGPSKATVKAMQEALAKLKEEEERQKREEEERIKRLEELEAKRKEEERLEQEKRERKKQKEKERKERLKKEGKLLTKSQREARARAEATLKLLQAQGVEVPSKDSLPKKRPIYEDKKRKKIPQQLESKEVSESMELCAAVEVMEQGVPEKEETPPPVEPEEEEDTEDAGLDDWEAMASDEETEKVEGNKVHIEVKENPEEEEEEEEEEEEDEESEEEEEEEGESEGSEGDEEDEKVSDEKDSGKTLDKKPSKEMSSDSEYDSDDDRTKEERAYDKAKRRIEKRRLEHSKNVNTEKLRAPIICVLGHVDTGKTKILDKLRHTHVQDGEAGGITQQIGATNVPLEAINEQTKMIKNFDRENVRIPGMLIIDTPGHESFSNLRNRGSSLCDIAILVVDIMHGLEPQTIESINLLKSKKCPFIVALNKIDRLYDWKKSPDSDVAATLKKQKKNTKDEFEERAKAIIVEFAQQGLNAALFYENKDPRTFVSLVPTSAHTGDGMGSLIYLLVELTQTMLSKRLAHCEELRAQVMEVKALPGMGTTIDVILINGRLKEGDTIIVPGVEGPIVTQIRGLLLPPPMKELRVKNQYEKHKEVEAAQGVKILGKDLEKTLAGLPLLVAYKEDEIPVLKDELIHELKQTLNAIKLEEKGVYVQASTLGSLEALLEFLKTSEVPYAGINIGPVHKKDVMKASVMLEHDPQYAVILAFDVRIERDAQEMADSLGVRIFSAEIIYHLFDAFTKYRQDYKKQKQEEFKHIAVFPCKIKILPQYIFNSRDPIVMGVTVEAGQVKQGTPMCVPSKNFVDIGIVTSIEINHKQVDVAKKGQEVCVKIEPIPGESPKMFGRHFEATDILVSKISRQSIDALKDWFRDEMQKSDWQLIVELKKVFEII | 1.3 |
| Q9UJM3 2xPhospho [T127(99.5); T131(100)] (protein, UniProt Q9UJM3 2-462, looked up, phospho T127, T131) ERBB receptor feedback …: SIAGVAAQEIRVPLKTGFLHNGRAMGNMRKTYWSSRSEFKNNFLNIDPITMAYSLNSSAQERLIPLGHASKSAPMNGHCFAENGPSQKSSLPPLLIPPSENLGPHEEDQVVCGFKKLTVNGVCASTPPLTPIKNSPSLFPCAPLCERGSRPLPPLPISEALSLDDTDCEVEFLTSSDTDFLLEDSTLSDFKYDVPGRRSFRGCGQINYAYFDTPAVSAADLSYVSDQNGGVPDPNPPPPQTHRRLRRSHSGPAGSFNKPAIRISNCCIHRASPNSDEDKPEVPPRVPIPPRPVKPDYRRWSAEVTSSTYSDEDRPPKVPPREPLSPSNSRTPSPKSLPSYLNGVMPPTQSFAPDPKYVSSKALQRQNSEGSASKVPCILPIIENGKKVSSTHYYLLPERPPYLDKYEKFFREAEETNGGAQIQPLPADCGISSATEKPDSKTKMDLGGHVKRKHLSYVVSP | 1.459 |
